Pooled drug test results. Numbers come from NIAID ChemDB, via PubChem.

Conditions beyond the fields shown may differ between rows. MIC50, MIC90 and the like: level of inhibition, or share of isolates inhibited. MIC bound: limit read from a one-dose screen. Inhibition is in % at the dose shown (toxicity tests: loss of growth or viability). Blank or dashed fields: not listed here. ECn is the concentration giving n% inhibition of infection, replication or growth. ICn is the concentration giving n% inhibition.

smiles	kind	species	strain or isolate	cell line	protein	method	endpoint	tested at	result
CC1(C)[C@H]2CC[C@@H](CNCCNCCc3ccccc3Cl)[C@@H]1C2	culture	Mycobacterium tuberculosis					MIC		50 µM
C#CC[C@@H](C(=O)N[C@H](/C=C/C(=O)OCC)C[C@@H]1CCNC1=O)n1cccc(NC(=O)c2cc(C)on2)c1=O	culture	Rhinovirus	Serotype 78	H1-HELA		cytopathic effect / XTT	inhibition	0.232 µM	90%
NS(=O)(=O)c1ccc(CNc2nnc(NC(=O)c3ccc(C(F)(F)F)cc3)s2)cc1	target	Human cytomegalovirus			Polymerase		IC50		>25 µM
Nc1ccc2c(O)cc(S(=O)(=O)[O-])cc2c1S(=O)(=O)[O-]	culture	Herpes simplex virus		Human conjunctiva cells		cytopathic effect	inhibition	10 µg/mL	0%
CCOc1ccc(-c2cncc(N3CCN(c4ccc(C)cc4)CC3)n2)cc1	target	Cytomegalovirus			UL97 kinase		IC50		<100 µM
OCc1ccccc1Sc1ccccc1CNCCNCc1ccc(C(F)(F)F)cc1	culture	Mycobacterium tuberculosis					MIC		25 µM
CCC(CC)[C@H](NC(C)=O)[C@@H]1[C@H](O)[C@@H](C(=O)O)C[C@H]1N=C(N)N	culture	Influenza B virus	B/Harbin/07.94	MDCK			EC50		0.12 µM
CCOc1ccc2ccccc2c1C(=O)Nc1nnc(NCc2ccc3c(c2)OCO3)s1	target	Human cytomegalovirus			Polymerase		IC50		<25 µM
CSc1ccc(-c2cncc(N3CCN(c4ccc(Cl)c(Cl)c4)CC3)n2)cc1	target	Cytomegalovirus			UL97 kinase		IC50		<100 µM
CCCCC(CC)CN1CN(CC(CC)CCCC)CC(C)(NCCNCCc2ccc(O)c(OC)c2)C1	culture	Mycobacterium tuberculosis					MIC		12.5 µM
O=S(=O)([O-])c1cc(O)c2ccccc2c1	culture	Herpes simplex virus		Human conjunctiva cells		cytopathic effect	inhibition	50 µg/mL	0%
O=C(Nc1nnc(NCC(c2ccccc2)c2ccccc2)s1)c1ccc2c(c1)C(=O)OC2=O	target	Human cytomegalovirus			Polymerase		IC50		<25 µM
CN(C)c1ccc(-c2cncc(N3CCN(c4ccc(Cl)c(Cl)c4)CC3)n2)cc1	target	Cytomegalovirus			UL97 kinase		inhibition	10 µM	>15%
COc1ccc(NC(=S)c2ccoc2C)cc1CC(=O)OC(C)C	culture	Mycobacterium tuberculosis	H37Rv			resazurin	MIC bound		>6.25 µg/mL
C=CCc1ccc(O)c(OC)c1	culture	Candida albicans	2643			turbidity	MIC90		480 µg/mL
Cc1ccc(C(=O)Nc2ccc(S(=O)(=O)O)c3cc(S(=O)(=O)O)cc(S(=O)(=O)O)c23)cc1NC(=O)c1cccc(NC(=O)Nc2cccc(C(=O)Nc3cc(C(=O)Nc4ccc(S(=O)(=O)O)c5cc(S(=O)(=O)O)cc(S(=O)(=O)O)c45)ccc3C)c2)c1	culture	Rhinovirus		Human embryonic lung cells		cytopathic effect	inhibition	10 µg/mL	0%
Cc1ccc(N2CCN(c3cncc(-c4ccc5ccccc5c4)n3)CC2)c(C)c1	target	Cytomegalovirus			UL97 kinase		inhibition	10 µM	>15%
Fc1ccc(N2CCCCC2)c(NC(=S)c2ccncc2)c1	host protein				JAK3	kinase activity	inhibition	10 µM	0%
COc1ccc(CCNCCNC[C@]2(C)CCC[C@]3(C)c4ccc(C(C)C)cc4CC[C@@H]23)cc1	culture	Mycobacterium tuberculosis					MIC		25 µM
O=C(Nc1c(S(=O)(=O)[O-])cc2cc(S(=O)(=O)[O-])cc(O)c2c1O)c1ccccc1	culture	Herpes simplex virus		Human amnion AV3 cells		cytopathic effect	inhibition	10 µg/mL	10%
COc1ccccc1N1CCN(c2cncc(-c3ccc(C(C)(C)C)cc3)n2)CC1	target	Cytomegalovirus			UL97 kinase		inhibition	10 µM	>15%
O=S(=O)([O-])c1ccc2c(NS(=O)(=O)c3ccccc3)cc(S(=O)(=O)[O-])cc2c1	culture	Herpes simplex virus		Human conjunctiva cells		cytopathic effect	inhibition	10 µg/mL	0%
C1=C(CCNCCNCCCCc2ccccc2)CCCC1	culture	Mycobacterium tuberculosis					MIC		12.5 µM
COc1ccc(OC)c(-c2cncc(N3CCN(c4ccc(OC)c(OC)c4)CC3)n2)c1	target	Cytomegalovirus			UL97 kinase		inhibition	10 µM	>15%
O=C1C(=O)c2ccccc2C(O)=C1CC=C(Cl)Cl	culture	Mycobacterium tuberculosis	H37Rv			BACTEC	inhibition	128 µg/mL	100%
COc1ccccc1CCNCCNCc1ccccc1Sc1ccccc1CO	culture	Mycobacterium tuberculosis					MIC		50 µM
c1ccc(C2CCN(c3cncc(-c4csc5ccccc45)n3)CC2)cc1	target	Cytomegalovirus			UL97 kinase		IC50		<100 µM
C[C@H](Cc1ccc(O)c(O)c1)[C@@H](C)Cc1ccc(O)c(O)c1	culture	Candida kefyr	CCC 123-2000			broth dilution	MIC50		125 µg/mL
COc1ccc(Cl)cc1-c1cncc(N2CCN(c3ccccc3)CC2)n1	target	Cytomegalovirus			UL97 kinase		IC50		<100 µM
O=C(Nc1nnc(NCCc2c[nH]c3ccccc23)s1)c1ccc2c(c1)C(=O)OC2=O	target	Human cytomegalovirus			Polymerase		IC50		<25 µM
CCO/N=C/c1ccc(OCCC2CCN(c3ccc(C)nn3)CC2)cc1	culture	Rhinovirus	2268-CV37 (ICAM-1 receptor group 60)	KB		neutral red	EC50		0.082 µM
NS(=O)(=O)c1ccc(CNc2nnc(NC(=O)c3c(Cl)cccc3Cl)s2)cc1	target	Human cytomegalovirus			Polymerase		IC50		<25 µM
c1ccc(CCCNCCNC23CC4CC(CC(C4)C2)C3)cc1	culture	Mycobacterium tuberculosis					MIC		37.5 µM
CCCCCCCC/C=C/CCCCCCCC(=O)Nc1nnc(NCc2ccc(F)cc2)s1	target	Human cytomegalovirus			Polymerase		IC50		<25 µM
COc1ccccc1N1CCN(c2cncc(-c3csc4ccccc34)n2)CC1	target	Cytomegalovirus			UL97 kinase		IC50		<100 µM
COc1cc(-c2ccc(N=Nc3ccc4c(S(=O)(=O)O)cc(S(=O)(=O)O)c(N)c4c3O)c(OC)c2)ccc1N=Nc1ccc2c(S(=O)(=O)O)cc(S(=O)(=O)O)c(N)c2c1O	culture	Adenovirus	TYPE 3	Human embryonic lung cells		cytopathic effect	inhibition	50 µg/mL	0%
O=C(Nc1nnc(NCc2ccc(F)cc2)s1)c1cc(F)cc(F)c1	target	Human cytomegalovirus			Polymerase		IC50		>25 µM